Compound potency records, mixed from different reports. Data source: NIAID ChemDB in PubChem.

All rows: growth or infection tests; organism: Candida albicans; measure: MIC

Neighbouring rows are from separate reports. Blank or dashed fields: not listed here.

compound,strain or isolate,method,result
CCOC(=O)Nc1ccc2c(c1)nc(-c1ccccc1)n2[O-],-,broth dilution,200 µg/mL
Cn1cc(C(=O)c2ccc(Cl)cc2)cc1/C=C/C(=O)O,-,-,>30 µg/mL
CC(C)C[C@@H]1NC(=O)[C@H]2CCCN2C1=O,MTCC 277,broth dilution,16 µg/mL
Cc1ccc(-c2cc(-c3ccc(Cl)cc3)nc(/N=C3\C(=O)N(CN4CCOCC4)c4ccc(Br)cc43)n2)cc1,-,-,39.06 µg/mL
CCOC(=O)/C=C/c1cc(C(=O)c2ccc(F)cc2)cn1C,-,-,>15 µg/mL
N[C@@H](C(=O)N[C@H](C(=O)O)C1O[C@@H](n2ccc(=O)[nH]c2=O)[C@H](O)[C@@H]1O)[C@H](O)Cc1ccc(O)cc1,-,-,>200 µg/mL
N=C(N)Sc1c2ccccc2nc2cccc([N+](=O)[O-])c12,CNCM 1180-79,-,500 µg/mL
Cc1ccc(-c2cc(-c3ccc(Cl)cc3)nc(/N=C3\C(=O)N(CN(C)C)c4ccc(Br)cc43)n2)cc1,-,-,39.06 µg/mL
CCOC(=O)c1c(C)[nH]c(O)c1/C=N/NC(=O)c1ccncc1,-,-,>25 µg/mL
NC(N)=NCCC[C@H](NC(=O)Cc1ccccc1)C(=O)NCCCCCCCCCCCCCCNC(=O)[C@H](CCCN=C(N)N)NC(=O)Cc1ccccc1,-,-,143 µM
C[C@@H](N1CCc2nc(-c3ccco3)sc2C1)[C@](O)(C[n+]1cnc[nH]1)c1ccc(F)cc1F,SC5314,-,0.25 µg/mL
NCCc1ccc([N+](=O)[O-])c2c(=O)c3ccccc3[nH]c12,CNCM 1180-79,-,100 µg/mL
CCCCCOc1ccc(-c2cc(-c3ccc(C(=O)N[C@H]4C[C@@H](O)[C@@H](O)NC(=O)[C@@H]5[C@@H](O)[C@@H](C)CN5C(=O)[C@H]([C@H](O)CC(N)=O)NC(=O)[C@H]([C@H](O)[C@@H](O)c5ccc(O)c(OS(=O)(=O)O)c5)NC(=O)[C@@H]5C[C@@H](O)CN5C(=O)[C@H]([C@@H](C)O)NC4=O)cc3)no2)cc1,142-5609A,-,0.0625 µg/mL
Cc1cc(Cl)[nH]c2ccc3c(=O)c(C(=O)NN=Cc4cc([N+](=O)[O-])ccc4O)cnc3c12,-,broth dilution,200 µg/mL
Clc1ccc(OC(Cn2nnc3ccccc32)c2ccc(Cl)cc2Cl)cc1,ATCC90027,broth dilution,>256 µg/mL
Cc1ccc(-c2cc(-c3ccc(Cl)cc3)nc(/N=C3\C(=O)N(CN4CCCCC4)c4ccc(Br)cc43)n2)cc1,-,-,19.53 µg/mL
CCCCCCCCCC(=O)N[C@@H](CCCN=C(N)N)C(=O)NCCCNC(=O)[C@H](CCCN=C(N)N)NC(=O)CCCCCCCCC,-,-,166 µM
Cn1cc(C(=O)c2ccccc2)cc1/C=C/C(=O)O,-,-,>250 µg/mL
NC(N)=NCCC[C@H](NC(=O)Cc1ccccc1)C(=O)NCCCCCCCCCCNC(=O)[C@H](CCCN=C(N)N)NC(=O)Cc1ccccc1,-,-,312 µM
Cc1cc(Cl)[nH]c2ccc3c(=O)c(C(=O)NN4C(=O)C(Cl)C4c4cc([N+](=O)[O-])ccc4O)cnc3c12,-,broth dilution,250 µg/mL
O=C(Nc1ccccc1)OCC1CC(c2ccccn2)=NO1,-,broth dilution,320 µg/mL
CCOC(=O)/C=C/c1cc(C(=O)c2ccccc2)cn1C,-,-,>4 µg/mL
COC(=O)Nc1ccc(OCC2CC(c3ccccc3)=NO2)cc1,-,broth dilution,200 µg/mL
CCOC(=O)/C=C/c1cc(C(=O)c2ccc(Cl)cc2)cn1C,-,-,>500 µg/mL
Cc1ccc(-c2cc(-c3ccc(Cl)cc3)nc(/N=C3\C(=O)N(CN4CCCCC4)c4ccc(Cl)cc43)n2)cc1,-,-,78.12 µg/mL
C/C(=N\NC(=S)Nc1ccc([N+](=O)[O-])cc1)c1ccccn1,ATCC 10231,broth dilution,10.7 µM
CCOC(=O)c1c(C)[nH]c(O)c1/C=N/N1C(=N)SCC1=O,-,-,>100 µg/mL
CCN(CC)CCn1c2ccccc2c(=O)c2c([N+](=O)[O-])cccc21,CNCM 1180-79,-,1000 µg/mL
CN(C)C(=S)N/N=C/c1ccc([N+](=O)[O-])o1,-,-,100 µg/mL
CC(=O)c1cn([C@@H]2O[C@H]([C@H](NC(=O)[C@@H](N)[C@H](C)[C@H](O)c3ccc(O)cn3)C(=O)O)[C@@H](O)[C@H]2O)c(=O)[nH]1,FP633,broth dilution,>50 µg/mL
Cc1ccc(-c2cc(-c3ccc(Cl)cc3)nc(/N=C3\C(=O)N(CN4CCCCC4)c4ccccc43)n2)cc1,-,-,78.12 µg/mL
CC(C)(C)c1cn(CC(Oc2ccc(Cl)cc2)c2ccc(Cl)cc2Cl)nn1,ATCC90027,broth dilution,>256 µg/mL
Cc1c(O)cccc1C(=O)N[C@@H](CSc1ccccc1)[C@H](O)CN1C[C@H]2CCCC[C@H]2C[C@H]1C(=O)NC(C)(C)C,I104,-,64 µg/mL
CCC(C)n1ncn(-c2ccc(N3CCN(c4ccc(OC[C@H]5CO[C@](Cn6cncn6)(c6ccc(Cl)cc6Cl)O5)cc4)CC3)cc2)c1=O,63U,broth dilution,1 µg/mL
Cc1cc(Cl)[nH]c2ccc3c(=O)c(C(=O)NN=Cc4ccccc4Cl)cnc3c12,-,broth dilution,250 µg/mL
C=C1CCC(=O)C(C)(C)C1CCc1ccc2c(c1)C(=O)C=CC2=O,-,-,3 µg/mL
COc1cc(O)c2c(c1)C(=O)c1cc(C)cc(O)c1C2=O,-,-,50 µg/mL
CCN(CC)CCSc1c2ccccc2nc2cccc([N+](=O)[O-])c12,CNCM 1180-79,-,500 µg/mL
CCOC(=O)/C=C/c1cc(C(=O)c2ccc(N(C)C)cc2)cn1C,-,-,>4 µg/mL
C[C@H]1[C@H](O)[C@@H](C)/C=C/C=C/C=C/C=C/C=C/C=C/C=C/[C@H](O[C@@H]2O[C@H](C)[C@@H](O)[C@H](N)[C@@H]2O)C[C@@H]2O[C@](O)(C[C@@H](O)C[C@@H](O)CC[C@H](O)[C@@H](O)C[C@@H](O)CC(=O)O[C@H]1C)C[C@H](O)[C@H]2C(=O)O,MTCC 277,broth dilution,50 µg/mL
Cn1cc(C(=O)c2ccc(-n3ccnc3)cc2)cc1/C=C/C(=O)O,-,-,>125 µg/mL
COc1ccc(C2C(Cl)C(=O)N2NC(=O)c2cnc3c(ccc4[nH]c(Cl)cc(C)c43)c2=O)cc1,-,broth dilution,500 µg/mL
C[C@@H](N1CC[n+]2cc(-c3ccccc3)[nH]c2C1)[C@](O)(C[n+]1cnc[nH]1)c1ccc(F)cc1F,Y0109,-,0.0325 µg/mL
Clc1ccccc1C(c1ccccc1)(c1ccccc1)n1ccnc1,-,-,6.25 µg/mL
O=[N+]([O-])c1ccc(/C=N/NC(=S)N2CCOCC2)o1,-,-,80 µg/mL
CCOC(=O)c1c(C)[nH]c(O)c1C=Nc1ccc(Cl)cc1,-,-,>25 µg/mL
Cc1cc(O)c2c(c1)C(=O)c1cc(C(=O)O)cc(O)c1C2=O,-,-,50 µg/mL
Cn1cc(C(=O)c2ccc([N+](=O)[O-])cc2)cc1/C=C/C(=O)O,-,-,>15 µg/mL
C/C(=N\NC(=S)Nc1ccc(Cl)cc1)c1ccccn1,ATCC 10231,broth dilution,17 µM
O=C(Nc1ccccc1)OCc1cc(-c2ccccn2)no1,-,broth dilution,200 µg/mL
C[C@H]1[C@H](O)[C@@H](C)/C=C/C=C/C=C/C=C/C=C/C=C/C=C/[C@H](O[C@@H]2O[C@H](C)[C@@H](O)[C@H](N)[C@@H]2O)C[C@@H]2O[C@](O)(C[C@@H](O)C[C@@H](O)CC[C@H](O)[C@@H](O)C[C@@H](O)CC(=O)O[C@H]1C)C[C@H](O)[C@H]2C(=O)O,ATCC64551,-,0.25 µg/mL
CCOC(=O)/C=C/c1cc(C(=O)c2ccc(-n3ccnc3)cc2)cn1C,-,-,>30 µg/mL
O=C(N/N=C/c1ccc([N+](=O)[O-])o1)N1CCOCC1,-,-,100 µg/mL
Cc1ccc(-c2cc(-c3ccc(Cl)cc3)nc(/N=C3\C(=O)N(CN4CCOCC4)c4ccc(Cl)cc43)n2)cc1,-,-,78.12 µg/mL
O=C(N/N=C/c1ccc([N+](=O)[O-])o1)N1CCCC1,-,-,100 µg/mL
COc1ccc2c(Cc3ccc(C(C)(C)C)cc3)c3[n+](cc2c1OC)CCc1cc2c(cc1-3)OCO2,ATCC62342,-,3.13 µg/mL

The last 5 rows once more:

compound	strain or isolate	method	result
CCOC(=O)/C=C/c1cc(C(=O)c2ccc(-n3ccnc3)cc2)cn1C	-	-	>30 µg/mL
O=C(N/N=C/c1ccc([N+](=O)[O-])o1)N1CCOCC1	-	-	100 µg/mL
Cc1ccc(-c2cc(-c3ccc(Cl)cc3)nc(/N=C3\C(=O)N(CN4CCOCC4)c4ccc(Cl)cc43)n2)cc1	-	-	78.12 µg/mL
O=C(N/N=C/c1ccc([N+](=O)[O-])o1)N1CCCC1	-	-	100 µg/mL
COc1ccc2c(Cc3ccc(C(C)(C)C)cc3)c3[n+](cc2c1OC)CCc1cc2c(cc1-3)OCO2	ATCC62342	-	3.13 µg/mL